Article PMC5068707 (PLoS Pathogens, 2016)

Target: T1, Ebola virus VP30 C-terminal domain (amino acids 139–288) (Ebola virus (EBOV), UniProt Q05323 139-288)
T1 sequence: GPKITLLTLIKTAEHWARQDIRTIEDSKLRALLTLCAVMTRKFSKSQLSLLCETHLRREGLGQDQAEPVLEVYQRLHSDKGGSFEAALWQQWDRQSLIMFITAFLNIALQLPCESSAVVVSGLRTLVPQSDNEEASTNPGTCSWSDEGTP
Conditions: both partners purified

B1: biotinylated EBOV NP peptide 600–617 (peptide)
chain: RTPTVAPPAPVYRDHSEK
modifications: biotinylated (AviTag, co-expressed E. coli biotin ligase)
Question: Does B1 bind?
Answer: binds
